# Test system: A(H1N1) A/Puerto Rico/8/34
# Assay: Antiviral MTT test, reduction of infectious viral titre
# Type: cell-based
# Settings: summary of Table 2, both influenza A strains
substance,measurement,value
"Sodium salt of 2-methylthio-4-pivaloyloxymethyl-6-(2+-amino-2′-carboxyethylthio)-1,2,4triazolo[5,1-c]1,2,4-triazine-7-one hydrate",Antiviral activity in vitro (in words),significant enhancement of its antiviral activity
